Source: patent US12064425B2, “Compositions and methods for targeting a viral infection” (priority 2018, dated 2024)

Biological target: HIV-1 Env (Human immunodeficiency virus type 1, UniProt Q71014)
Assay: β-galactosidase α-complementation cell-cell fusion assay, HIV-1 Env
Conditions: read-out: IC50 (μM), cell-cell fusion assay, wild type Env; S2C3; 92UG037.8 HIV-1 Env wild type

## Nc1c2c([n+](CCCCCCCCCC[n+]3c4c(c(N)c5ccccc53)CCC4)c3ccccc13)CCC2 [Compound S2C3]
  IC50: 4.4 µM
